Compound potency records, mixed from different reports. Data source: NIAID ChemDB in PubChem.

All rows: tests in culture; organism: Cryptococcus neoformans; measure: EC50

Rows are shuffled and stem from different studies. Blank or dashed fields: not listed here. ECn: concentration that inhibits the pathogen or its effect by n%.

| smiles | strain or isolate | value |
|---|---|---|
| C=C(C)[C@@H]1CC[C@]2(C(=O)O)CC[C@]3(C)C(CCC4[C@@]5(C)C[C@@H](O)[C@H](O)C(C)(C)C5[C@@H](O)C[C@]43C)C12 | - | 20 µg/mL |
| COc1cc2ccnc3c2c(c1OC(=O)c1ccc(C#N)cc1)N(C)C=C3 | - | >15 µg/mL |
| C[n+]1c2ccccc2cc2c1c1ccccc1n2CCCCCc1ccccc1 | ATCC 90113 | 15 µg/mL |
| CC(C(O)(Cn1cncn1)c1ccc(F)cc1F)S(C)(=O)=O | R718 (AZOLE-R) | 3 µM |
| CCCCc1ccc(C(=O)Oc2c(OC)cc3ccnc4c3c2N(C)C=C4)cc1 | - | 1.5 µg/mL |
| CC(=O)c1c(O)cc(O)c(C(C)=O)c1O | - | >20 µg/mL |
| CC(C)(C)C1CCC(CN2C3=NC[C@@H](CC4CCCCC4)N3C[C@@H]2CC2CCCCC2)CC1 | ATCC 32045 | 5.5 µg/mL |
| COc1cccc(C(=O)Oc2c(OC)cc3ccnc4c3c2N(C)C=C4)c1 | - | >15 µg/mL |
| C[C@@H]1CCC2(OC1)OC1CC3C4C[C@H](O)[C@H]5C[C@@H](O)CC[C@]5(C)C4CC(=O)[C@]3(C)C1[C@@H]2C | ATCC 90113 | 4.5 µg/mL |
| CC(C)(C)C1CCC(CN2C3=NC[C@@H](CC4CCCCC4)N3C[C@H]2C2CCCCC2)CC1 | ATCC 32045 | 2 µg/mL |
| Cn1c2ccccc2c2nc3ccc(Br)cc3cc21 | ATCC 90113 | 11 µg/mL |
| COc1c(O)c2c(=O)cc(OC)c3c4c(OC)cc(=O)c5c(O)c(OC)c6c(c(c1CC(C)=C6OC(C)=O)c23)c54 | - | >100 µg/mL |
| CC(C)(C)C1CCC(CN2C3=NC[C@H](CC4CCCCC4)N3C[C@@H]2C2CCCCC2)CC1 | ATCC 32045 | 2.3 µg/mL |
| CN(CC#CC#CC(C)(C)C)c1cccc2c1CCC(=O)N2 | CY1057 | >200 µg/mL |
| CCCCc1oc2ccccc2c1C(=O)c1cc(I)c(OCCN(CC)CC)c(I)c1 | 271 | <7 µM |
| Cc1c(O)c(C=O)c(O)c(C=O)c1O | - | >20 µg/mL |
| CC(C)(C)C1CCC(CN2C3=NC[C@@H](C4CCCCC4)N3C[C@@H]2C2CCCCC2)CC1 | ATCC 32045 | 3.7 µg/mL |
| CC(=O)c1c(O)cc(O)c(C=O)c1O | - | >20 µg/mL |
| Cn1c2ccccc2c2nc3ccccc3cc21 | ATCC 90113 | 62.5 µg/mL |
| C1CCC(C[C@H]2CN3C(=NC[C@H]3C3CCCCC3)N2CCC23CC4CC(CC(C4)C2)C3)CC1 | ATCC 32045 | 2.6 µg/mL |
| c1ccc2c(c1)cc1[nH]c3ccccc3c1[n+]2CCCCCC1CCCCC1 | ATCC 90113 | 0.3 µg/mL |
| COc1cc(NC(C)CCCN)c2nc(C(C)(C)C)ccc2c1Oc1cccc(C(F)(F)F)c1 | - | 1.5 µg/mL |
| CCN1C2=NC[C@@H](CC3CCCCC3)N2C[C@@H]1Cc1ccccc1 | ATCC 32045 | 37.7 µg/mL |
| CC(C)CCc1c(O)c(C=O)c(O)c(C=O)c1O | - | >20 µg/mL |
| C1CCC(C[C@H]2CN3C(=NC[C@@H]3C3CCCCC3)N2CCC23CC4CC(CC(C4)C2)C3)CC1 | ATCC 32045 | 15 µg/mL |
| CN1c2c([nH]c3ccccc23)C=C2C=CC=CC21 | ATCC 90113 | 15.6 µg/mL |
| COc1cc2ccnc3c2c(c1OC(=O)c1ccc(CCl)cc1)N(C)C=C3 | - | >15 µg/mL |
| CC(C)(C)C1CCC(CN2C3=NC[C@H](CC4CCCCC4)N3C[C@H]2CC2CCCCC2)CC1 | ATCC 32045 | 3.4 µg/mL |

For reference, 2 entries again:

smiles | strain or isolate | value
Cn1c2ccccc2c2nc3ccccc3cc21 | ATCC 90113 | 62.5 µg/mL
CN1c2c([nH]c3ccccc23)C=C2C=CC=CC21 | ATCC 90113 | 15.6 µg/mL